# Reference: US20080063679A1, “NANOCOMPOSITES WITH RESIDUAL BIOCIDAL AND BIOSTATIC PROPERTIES” (Quartek Corporation, priority 2006, published 2008)
# Settings: Table 1
# Description: Current antimicrobials have a short life with no residual effect. They lose there effectiveness in high protein environment. Certain bacteria developed resistance. They are toxic or cause irritations. Some are highly corrosive.
smiles,measurement,value
OCl [Hypochlorite],Life-time,2 h
same,Non-staining,bleaching
same,Odorless,no
same,pH,6–7
